These results are taken from article PMC8637920, “Structure, Function and Regulation of a Second Pyruvate Kinase Isozyme in Pseudomonas aeruginosa” (Frontiers in Microbiology, 2021).

The test system of the series is C=C(OP(=O)(O)O)C(=O)O. As to the kind of experiment: purified protein. The following applies: PEP titration; no G6P.
The term kcat denotes the number of substrate molecules converted per active site and unit of time at saturation. Broadly, the kcat/Km is the second-order rate constant that governs catalysis at low substrate concentration. In the case of “PykFPA (Pseudomonas aeruginosa PAO1; P455A)”, the K0.5 is 0.48 ± 0.02 mM, the kcat was determined as 250 s⁻¹ and the kcat/Km came out at 522000 M⁻¹ s⁻¹.

As to “PykFPA (Pseudomonas aeruginosa PAO1; P455A/P459A)”, the K0.5 was found to be 2.05 ± 0.53 mM, the kcat came to 147 s⁻¹ and the kcat/Km was found to be 72000 M⁻¹ s⁻¹.

Turning to “PykFPA (Pseudomonas aeruginosa PAO1; P459A)”, the K0.5 was 1.11 ± 0.05 mM, the kcat is 127 s⁻¹ and the kcat/Km was determined as 114000 M⁻¹ s⁻¹.
